Human monoclonal antibodies against the spike receptor-binding domain (heavy:light variable regions). IC50 against pseudoviruses bearing the spike of naturally observed variants; lower = stronger; >10 µg/ml means not reached at the top dose. No active / inactive call. The stated detection limit is 0.0005 µg/ml; values near or below 0.001 µg/ml lie at the floor of the assay.
B1: BD56-596 (protein)
chain 1: QVHLVQSGAEVKKPGSSVKVSCKASGGTFSSYAINWVRQAPGQGLEWMGGIIPIFGTTNYAQKFQGRVTITADEFTSTAYMELSSLRSEDTAIYYCARDFEVSPLYGMDVWGQGTTVTVSS
chain 2: DTQMTQSPSSLSASVGDSVTITCRASQSISSYLNWYQQKPGKAPKLLIYAASSLDSGVPSRFSGSGSGTDFTLTISSLQPEDFATYYCQQSYSSPPITFGQGTRLEIK
B2: BD56-599 (protein)
chain 1: QVQLVQSGAELKKPGASVKVSCKASGYTFTSHDISWVRQAPGQGLEWMGWISAYNGDTNYAQKLQGRVTMTTDTSTSTAYMELRSLRSDDTAVYYCARATWEMPTIPTPTSVDYWGQGTLVTVSS
chain 2: SYELTQPPSVSVSPGQTARITCSGAAFPMQYAYWYQQKPGQAPVVVIYKDTERPSGIPERFSGSSSGTTVTLTISGVQAEDEADYYCQSADSRAWVFGGGTKLTVL
B3: BD56-603 (protein)
chain 1: QVQLVQSGAEVKKPGASVKVSCKASGYTFTSYYMHWVRQAPGQGLEWMGIINPSGGSTSYAQKFQGRVTMTRDTSTSTVYMELSSLRSEDTAVYYCARDHVLEVVVIDYYYGMDVWGQGTTVTVSS
chain 2: QSALTQPASVSGSPGQSITISCTGTSSDVGGYNYVSWYQQHPGKAPKLMIYDVSKRPSGVSNRFSGSKSGNTASLTISGLQAEDEADYYCSSYTSSSTLNWVFGGGTKLTVL
B4: BD56-608 (protein)
chain 1: EVQLVQSGAEVKKPGESLRISCKGSGYHFNRYWINWVRQMPGKGLEWMGRIDPSDSYTNYSPSFQGHVTISVDKSISTAYLQWSSLQASDTAMYYCARQVYFGESFGLGYWGQGTLVTVSS
chain 2: QTVVTQEPSLTVSPGGTVTLTCASSTGAVTIGFYPNWFQQKPGQAPRALIYSTSNKHSWTPARFSGSLLGGKAALTLSGVQPEDEGEYYCLLYYGASWVFGGGTKLTVL
B5: BD56-610 (protein)
chain 1: QVQLVQSGAEAKKPGSSLKVSCKASGGTFSSYSINWVRQAPGQGLEWMGKIIPILGIANYAQKFQGRVTITADKSTSTAYMELSSLRSEDTATYYCAREMAMAGYNTEYFQYWGQGTLVTVSS
chain 2: QSVLTQPPSVSGAPGQRVTISCTGSSSNIGAGYDVHWYQQLPGTAPKLLIYGNSNRPSGVPDRFSGSKSDTSASLAITGLQAEDEADYYCQSYDSSLSELLFGGGTKLTVL
B6: BD56-612 (protein)
chain 1: QVTLRESGPALVKPTQTLTLTCTFSGVSLTTSEMYVSWIRQPPGKALEWLALIGWDDDKYYSTSLKTRLTISRDTSKNQVLLTVTNVDPADTATYYCARSPSLYESSGYYYQYYFAYWGRGTLVTVSS
chain 2: EIVLTQSPGTLSLSPGEKATLSCRASQSVSSSYLAWYQQKPGQAPRLLMYGASSRATGIPDRFSGSGSGTDFTLTISRLEPEDFAVYYCQQYGGSPLTFGQGTKVEIK
B7: BD56-614 (protein)
chain 1: EVQLVESGGGLIQPGESLRLSCAASGFTVSSNYVSWVRQAPGKGLEWVSVIYSGGRTFYADSVKARFTISRDNFKNTVYLQMDSLRAEDTAVYYCARGEPLKGISSYGDDYYFDSWGQGTLVTVSS
chain 2: SSELTQPPSVSVSPGQTARITCSGDTLPMQYVYWYQQKAGQAPALVIYKDTERPSGIPERFSGSSSGTAVMLTIRGVQAEDEAVYYCQSADSSGVVFGGGTKLTVL
B8: BD56-619 (protein)
chain 1: EVQLVESGGGSVQPGGSLRLSCAASGITVSSNYMSWVRQAPGKGLEWVSVIYPGGTTDYLDSVKGRFTISRHDSNLYLVLNSLRTEDTAVYFCARDLGPYGLDVWGQGTTVTVSS
chain 2: IQLTQSPSSLSASVGDRVTITCRASQGISSELAWYQQKPGQAPKLLIYDASTLQSGVPSRFSGSGSATEFTLTISSLQPDDFATYYCQEVNVYPPPFGGGTKVEIK
B9: BD56-623 (protein)
chain 1: QAQLVESGGGVVQPGRSLRLSCAASGFIFSSYAMHWVRQAPGKGLEWVAVISYDGSNKYYAKSVKGRFTISRDNFKNTLYLQMNSLRAEDTAVYDCARDMNAHPSVYNYGMDVWGQGTTVTVSS
chain 2: QSVLTQPPSVSGAPGQRVTISCTGSSSNIGAGYDVHWYQQLPGTAPKLLIYGDINRPSGVPDRFSGSNSGTSASLAITGLQAEDEADYYCQSYDSSLSGWVFGGGTKLTVL
B10: BD56-627 (protein)
chain 1: EVQLVESGGGLVQPGGSLRLSCAASGFTFSNFDMHWVRQPTGKGLEWVSTIGTAGDAYYPDSVKGRFTISRENGRNSLYLQMNSLRAEDTAVYYCARVAYVNSAFYSHLDSWGQGTLVTVSS
chain 2: DIQMTQSPSFLSASVGDRVTITCRASQSIGNYLNWYQQKPGKAPKLLIYAASSLQSGVPSRFSGSGSGTDFTLTISSLQLEDFATYYCQQSYITTGYTFGQGTKLGIK
B11: BD56-631 (protein)
chain 1: QVQLVQSGAEVKKPGSSVKVSCKASGGTFSSYSINWVRQAPGQGLEWMGRTIPILGVANHAQKFQGRVTIIADKSTTTAYMELSSLKSEDTAVYYCAGGFGAGDYDAFDIWGQGTMVTVSS
chain 2: DIHMTQSPSSLSTSVGDRVTLTCRASQSISYFLNWYQQKPGKAPRLLIYAASNLQSGVPSRFSGSGSGTDFTLTISSLQPEDFATYYCQESYSTSFTFGPGTKVDIK
B12: BD56-633 (protein)
chain 1: QVQLVQSGAEVKKPGSSLKVSCKASGGTFSSYIIIWVRQGPGQGLEWMGEIIPILGTTNYAQKFQGRLTITADKSTSTAYMELSSLRSEDTAVYYCARVVGYSGSGSSYYFDSWGQGTLVTVSS
chain 2: QSVLTQPPSVSGAPGQRVTISCTGSNSNIGAGYDVHWYQQLPGTAPKLLIYVNNNRPSGVPDRFSGSKSGTSASLAITGLQAEDEADYYCQSYDSSLSGSVFGGGTKLTVL

Each binder was assayed against SARS-CoV-2 Omicron BA.1 spike pseudovirus (assay: pseudovirus neutralization IC50; higher = weaker neutralization).
Description: (§1)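 Single-round VSV luciferase pseudovirus mixed with antibody dilutions for 1 h and put on Huh-7 cells for about a day; IC50 from the dose curve.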
In the case of B1, the “pseudovirus neutralization IC50” value is reported as 0.279 µg/mL. In the case of B2, the “pseudovirus neutralization IC50” value is reported as > 10 µg/mL. For B3, the “pseudovirus neutralization IC50” value was 7.63 µg/mL. B4 was tested, and the “pseudovirus neutralization IC50” value was 0.115 µg/mL. With B5 the “pseudovirus neutralization IC50” value was 0.0391 µg/mL. B6 was tested, and the “pseudovirus neutralization IC50” value was 3.79 µg/mL. B7 was tested, and the “pseudovirus neutralization IC50” value was > 10 µg/mL. In the case of B8, the “pseudovirus neutralization IC50” value is reported as 0.001 µg/mL. With B9 the “pseudovirus neutralization IC50” value was 0.443 µg/mL. In the case of B10, the “pseudovirus neutralization IC50” value is reported as 4.81 µg/mL. B11 was tested, and the “pseudovirus neutralization IC50” value was 0.958 µg/mL. With B12 the “pseudovirus neutralization IC50” value was 0.132 µg/mL.

These binders were tested against SARS-CoV-2 Omicron BA.2 spike pseudovirus in the same assay as above.
Description: as §1
For B1, the “pseudovirus neutralization IC50” value was 0.226 µg/mL. With B2 the “pseudovirus neutralization IC50” value was > 10 µg/mL. With B3 the “pseudovirus neutralization IC50” value was > 10 µg/mL. In the case of B4, the “pseudovirus neutralization IC50” value is reported as 0.118 µg/mL. In the case of B5, the “pseudovirus neutralization IC50” value is reported as 0.0329 µg/mL. For B6, the “pseudovirus neutralization IC50” value was 3.91 µg/mL. B7 was tested, and the “pseudovirus neutralization IC50” value was > 10 µg/mL. With B8 the “pseudovirus neutralization IC50” value was 0.00111 µg/mL. With B9 the “pseudovirus neutralization IC50” value was 0.362 µg/mL. With B10 the “pseudovirus neutralization IC50” value was 6.8 µg/mL. With B11 the “pseudovirus neutralization IC50” value was 1.5 µg/mL. With B12 the “pseudovirus neutralization IC50” value was 0.13 µg/mL.

The binders below were run against SARS-CoV-2 Omicron BA.2.75 spike pseudovirus in the same assay as above.
Description: as §1
With B1 the “pseudovirus neutralization IC50” value was 0.232 µg/mL. For B2, the “pseudovirus neutralization IC50” value was > 10 µg/mL. In the case of B3, the “pseudovirus neutralization IC50” value is reported as > 10 µg/mL. For B4, the “pseudovirus neutralization IC50” value was 0.136 µg/mL. In the case of B5, the “pseudovirus neutralization IC50” value is reported as 0.0379 µg/mL. B6 was tested, and the “pseudovirus neutralization IC50” value was 2.19 µg/mL. For B7, the “pseudovirus neutralization IC50” value was > 10 µg/mL. In the case of B8, the “pseudovirus neutralization IC50” value is reported as 0.241 µg/mL. B9 was tested, and the “pseudovirus neutralization IC50” value was 0.414 µg/mL. In the case of B10, the “pseudovirus neutralization IC50” value is reported as 5.33 µg/mL. For B11, the “pseudovirus neutralization IC50” value was 1.27 µg/mL. With B12 the “pseudovirus neutralization IC50” value was 0.134 µg/mL.

Each binder was assayed against SARS-CoV-2 Omicron BA.5 spike pseudovirus in the same assay as above.
Description: as §1
B1 was tested, and the “pseudovirus neutralization IC50” value was > 10 µg/mL. B2 was tested, and the “pseudovirus neutralization IC50” value was > 10 µg/mL. B3 was tested, and the “pseudovirus neutralization IC50” value was > 10 µg/mL. In the case of B4, the “pseudovirus neutralization IC50” value is reported as > 10 µg/mL. In the case of B5, the “pseudovirus neutralization IC50” value is reported as > 10 µg/mL. For B6, the “pseudovirus neutralization IC50” value was 2.96 µg/mL. With B7 the “pseudovirus neutralization IC50” value was > 10 µg/mL. For B8, the “pseudovirus neutralization IC50” value was 0.0175 µg/mL. With B9 the “pseudovirus neutralization IC50” value was 0.544 µg/mL. For B10, the “pseudovirus neutralization IC50” value was 6.95 µg/mL. In the case of B11, the “pseudovirus neutralization IC50” value is reported as 8.09 µg/mL. For B12, the “pseudovirus neutralization IC50” value was > 10 µg/mL.

These binders were tested against SARS-CoV-2 Omicron BQ.1.1 spike pseudovirus in the same assay as above.
Description: as §1
B1 was tested, and the “pseudovirus neutralization IC50” value was > 10 µg/mL. With B2 the “pseudovirus neutralization IC50” value was > 10 µg/mL. With B3 the “pseudovirus neutralization IC50” value was > 10 µg/mL. With B4 the “pseudovirus neutralization IC50” value was > 10 µg/mL. B5 was tested, and the “pseudovirus neutralization IC50” value was > 10 µg/mL. B6 was tested, and the “pseudovirus neutralization IC50” value was 3.41 µg/mL. B7 was tested, and the “pseudovirus neutralization IC50” value was > 10 µg/mL. With B8 the “pseudovirus neutralization IC50” value was > 10 µg/mL. For B9, the “pseudovirus neutralization IC50” value was > 10 µg/mL. For B10, the “pseudovirus neutralization IC50” value was 9.44 µg/mL. B11 was tested, and the “pseudovirus neutralization IC50” value was > 10 µg/mL. B12 was tested, and the “pseudovirus neutralization IC50” value was > 10 µg/mL.

The binders below were run against SARS-CoV-2 Omicron XBB spike pseudovirus in the same assay as above.
Description: as §1
For B1, the “pseudovirus neutralization IC50” value was > 10 µg/mL. B2 was tested, and the “pseudovirus neutralization IC50” value was > 10 µg/mL. For B3, the “pseudovirus neutralization IC50” value was > 10 µg/mL. B4 was tested, and the “pseudovirus neutralization IC50” value was > 10 µg/mL. B5 was tested, and the “pseudovirus neutralization IC50” value was 4.95 µg/mL. In the case of B6, the “pseudovirus neutralization IC50” value is reported as 3.45 µg/mL. B7 was tested, and the “pseudovirus neutralization IC50” value was > 10 µg/mL. In the case of B8, the “pseudovirus neutralization IC50” value is reported as > 10 µg/mL. With B9 the “pseudovirus neutralization IC50” value was > 10 µg/mL. With B10 the “pseudovirus neutralization IC50” value was 9.43 µg/mL. For B11, the “pseudovirus neutralization IC50” value was 2.01 µg/mL. In the case of B12, the “pseudovirus neutralization IC50” value is reported as 2.98 µg/mL.

The binders below were run against SARS-CoV-2 early D614G spike pseudovirus in the same assay as above.
Description: as §1
B1 was tested, and the “pseudovirus neutralization IC50” value was 0.205 µg/mL. B2 was tested, and the “pseudovirus neutralization IC50” value was > 10 µg/mL. B3 was tested, and the “pseudovirus neutralization IC50” value was > 10 µg/mL. B4 was tested, and the “pseudovirus neutralization IC50” value was 0.0368 µg/mL. In the case of B5, the “pseudovirus neutralization IC50” value is reported as 0.0363 µg/mL. For B6, the “pseudovirus neutralization IC50” value was 4.08 µg/mL. For B7, the “pseudovirus neutralization IC50” value was > 10 µg/mL. B8 was tested, and the “pseudovirus neutralization IC50” value was 0.00494 µg/mL. In the case of B9, the “pseudovirus neutralization IC50” value is reported as 1.28 µg/mL. For B10, the “pseudovirus neutralization IC50” value was 3.83 µg/mL. With B11 the “pseudovirus neutralization IC50” value was > 10 µg/mL. B12 was tested, and the “pseudovirus neutralization IC50” value was 0.374 µg/mL.

— the supplement of paper PMC9931576
